A mixed list of measured activities; the numbers were collected in NIAID ChemDB.

All rows: growth or infection tests; species: Mycobacterium tuberculosis

ECn is the concentration giving n% inhibition of infection, replication or growth. Blank or dashed fields: not listed here. A number after MIC or MFC names an inhibition level or a share of isolates. MIC bound comes from a single tested concentration. Neighbouring rows are from separate reports. Percent inhibition refers to the dose given; in toxicity tests it is the harm to the cells.

structure,strain or isolate,read by,setting,mutations,endpoint,tested at,cell line,value
CC(NC(=O)c1c(F)cccc1Cl)c1nnc(SCc2ccc(F)cc2)n1Cc1cccnc1,H37Rv (ATCC 27294),broth dilution,14 d,,MIC,,,>64 µg/mL
Cl.Cl.O=C(Nc1cccc(C(=O)Nc2ccc(C3=NCCN3)cc2)c1)c1ccc(C2=NCCN2)cc1,H37Rv,BACTEC,,,MIC,,,12.5 µg/mL
COc1cc2c3c(cc4cc5c(cc4c3c1OC)OCO5)N(C=O)CC2,H37Rv,resazurin,,,MIC,,,>50 µg/mL
COc1ccc2cc(CN(C(=O)Nc3ccc(F)cc3)C3CCCCCC3)c(=O)[nH]c2c1,H37Rv (ATCC 27294),broth dilution,7 d,,MIC,,,>64 µg/mL
Cc1ccc(Oc2ccc(Nc3ncnc4ccccc34)cc2)cc1,H37Rv,luminescence,,,MIC50,,,>20 µM
CCCOc1cc2oc3cc(O)c(CCC(C)C)c(O)c3c(=O)c2c(CCC(C)C)c1OC,M21,resazurin,,MDR,MIC,,,6.25 µg/mL
COc1ccc2nc(C)cc(NCCc3ccc(OC(F)(F)F)cc3)c2c1,H37Rv,luminescence,,,MIC50,,,>20 µM
COc1cc2oc3cc(OC(C)=O)c(CCC(C)C)c(O)c3c(=O)c2c(CCC(C)C)c1OC,H37Ra,resazurin,,,MIC,,,100 µg/mL
Cc1nc(Nc2ccc(Oc3ccc(C(F)(F)F)cc3)cc2)c2ccccc2n1,H37Rv,luminescence,,,MIC50,,,>20 µM
COc1cc2oc3cc(O)c(CCC(C)C)c(O)c3c(=O)c2c(CCC(C)C)c1OC,M-3,resazurin,,,MIC,,,0.78 µg/mL
O=C(Cc1ccc(Cl)cc1)N1COC(c2sc3ccc(Oc4ccccc4)cc3c2Cl)=N1,H37Rv,,,,inhibition,6.25 µg/mL,,24%
COC(=O)CNC(=O)c1nc(C(C)(C)C)[nH]c1C(C)(C)C,H37Rv,,,,MIC,,,>6.25 µg/mL
Fc1ccc(C2CCN(c3ccc(Nc4ncnc5cc(F)ccc45)cc3)CC2)cc1,H37Rv,luminescence,,,MIC50,,,>20 µM
Cc1cccc(/C=N/NC(=S)N(C)C)n1.[Cl][Cu][Cl],H37Rv,,,,MIC90,,,3.13 µM
Nc1nccnc1C(=O)O,H37Rv,BACTEC,,,inhibition,12.5 µg/mL,,20%
COc1ccc2cc([N+](=O)[O-])c3ccc(=O)oc3c2c1,MTY147,resazurin,,,MIC,,,25 µg/mL
CCCCCN1C(=O)c2cc(Cl)nnc2Oc2cc(C)ccc21,H37Rv,BACTEC,,,inhibition,12.5 µg/mL,,69%
FC(F)(F)Oc1ccc(CCNc2ncnc3cc(C(F)(F)F)ccc23)cc1,H37Rv,luminescence,,,MIC50,,,>20 µM
O=C(N/N=C/c1ccccc1)c1cnc(C2C3CC4CC(C3)CC2C4)[nH]1,H37Rv,,,,inhibition,6.25 µg/mL,,9%
Cc1cc(C)c2c(c1)NP(=S)(c1ccccc1)N2,H37Rv,resazurin,,,MIC bound,,,>6.25 µg/mL
CC[C@@H](CO)NCCN[C@@H](CC)CO,M8,resazurin,,MDR,MIC,,,>8 µg/mL
Cc1ccc2c(c1)N(CC1CCCCC1)C(=O)c1cc(Cl)nnc1O2,H37Rv,BACTEC,,,EC50,,,<12.5 µg/mL
COC(=O)c1c(O)c2c(c3c1OC(C)(C)CC3)OC(C)(C)CC2,H37Rv,BACTEC,,,MIC,,,≥12.5 µg/mL
CCCCCCCCCCCCN1C(=O)C(CC(=O)O)SC12CCN(C(=O)C(N)Cc1ccccc1)CC2,H37Ra,resazurin,,,EC50,,,<25 µg/mL
CC1COc2c(N3CCN(C)CC3)c(F)cc3c(=O)c(C(=O)O)cn1c23,001-005 (DRUG-SUS),,,,MBC,,,4 µg/mL
Cn1cc(C(=O)/C(Cl)=C(\Cl)C(=O)O)c2ccccc21,H37Rv,BACTEC,,,inhibition,6.25 µg/mL,,11%
COc1ccc2c(Nc3ccc(Oc4ccc(OC(F)(F)F)cc4)cc3)ncnc2c1,H37Rv,luminescence,,,MIC50,,,>20 µM
O=C(N/N=C(\c1nc2ccc([N+](=O)[O-])cc2[nH]c1=O)C(O)c1ccc([N+](=O)[O-])cc1)c1ccncc1,H37Rv,visual reading / absorbance,,KatG *741R,MIC,,,50 µM
CCCCCN1C(=O)c2ccnnc2Oc2ccccc21,H37Rv,BACTEC,,,inhibition,12.5 µg/mL,,0%
CCCCCC/C(CC(=O)CCC(=O)NCCc1ccccc1)=N/NC(=O)c1ccc2ccccc2c1O,H37Rv,BACTEC,,,MIC,,,≥12.5 µg/mL
CC(C)/C=N/NC(=O)c1nc(C2C3CC4CC(C3)CC2C4)[nH]c1C1C2CC3CC(C2)CC1C3,H37Rv,,,,MIC,,,>6.25 µg/mL
CCCCC/C(CC1NC(=S)NC1=O)=N\NC(=O)c1ccncc1,,visual reading / absorbance,,inhA 15C to T,MIC,,,6.3 µM
O=C(NCCCl)N1CCC(CN=c2cc3n(-c4ccc(Cl)cc4)c4ccccc4nc-3cc2Nc2ccc(Cl)cc2)CC1,ETA-R,,,,MIC,,,0.2 µg/mL
CC(C)(C)OC(=O)N1CCC2(CC1)CCN(c1ncnc3ccccc13)CC2,H37Rv,luminescence,,,MIC50,,,>10 µM
COc1ccc(-c2ccc(OCC(=O)OC(C)(C)C)cc2CN2CCN(c3cccc(C)n3)CC2)cc1,H37Rv (ATCC 27294),broth dilution,,,MIC,,,16 µg/mL
FC(F)(F)c1ccnc(Oc2ccc(Nc3ncnc4ccccc34)cc2)n1,H37Rv,luminescence,,,MIC50,,,>20 µM
Cc1c(C)c2ccc3oc4ccccc4c3c2oc1=O,H37Rv,BACTEC,,,MIC bound,,,>12.5 µg/mL
NNC(=O)CNc1ccc2ccccc2c1,Drug-resistant,,,,inhibition,1 µg/mL,,100%
O=C(O)c1cnc(C2C3CC4CC(C3)CC2C4)[nH]1,H37Rv,,,,inhibition,6.25 µg/mL,,0%
CCCCCCCCCCCCN1C(=O)C(CC(=O)O)SC12CCCCCC2,H37Ra,resazurin,,,inhibition,25 µg/mL,,96%
CCOc1cc2oc3cc(O)c(OC)c(CCC(C)C)c3c(=O)c2c(O)c1CCC(C)C,H37Ra,resazurin,,,MIC,,,12.5 µg/mL
O=C(NN1C(=O)CS(=O)(=O)C1c1ccc(C(F)(F)F)cc1)c1ccncc1,,visual reading / absorbance,,KatG *741R,MIC,,,25 µM
Fc1ccc2c(Nc3ccc(Oc4ccc(Cl)cc4)cc3)ncnc2c1,H37Rv,luminescence,,,MIC50,,,>50 µM
CC(C)(C)c1nc(C(=O)O)c(C(C)(C)C)[nH]1,H37Rv,,,,MIC,,,>6.25 µg/mL
CC1=NN(C(=O)CC(=O)Nc2ccc(C(=O)O)cc2)C(=O)C1N=Nc1ccccc1C(=O)O,H37Rv,BACTEC,,,inhibition,12.8 µg/mL,,10%
CCCCCCN1C(=O)c2cc(Cl)nnc2Oc2ccc3ccccc3c21,H37Rv,BACTEC,,,EC50,,,>12.5 µg/mL
O=C1CSC2(CCCCC2)N1Cc1ccccc1,H37Ra,resazurin,,,inhibition,25 µg/mL,,8%
CCCCCCCCCCCCCCC[C@H](O)CC[C@H](O)C[C@H]1CC=CC(=O)O1,H37Rv,fluorescence,,,inhibition,128 µg/mL,,84.3%
CCCCCCCCCCCCN1C(=O)C(CC(=O)O)SC12CCNCC2,H37Ra,resazurin,,,EC50,,,>25 µg/mL
CN(CC(=O)NN)c1ccc2ccccc2c1,H37Rv,,,,EC50,,,2 µg/mL
CC(NC(=O)c1c(F)cccc1F)c1nnc(SCc2ccc(F)cc2)n1Cc1cccnc1,H37Rv (ATCC 27294),broth dilution,7 d,,MIC,,,>64 µg/mL
CCCCSc1nc2c(=O)[nH][nH]c(=O)c2n1Cc1ccccc1,H37Rv,BACTEC,,,inhibition,12.5 µg/mL,,0%
FS(F)(F)(F)(F)c1ccc(CCNc2ncnc3ccccc23)cc1,H37Rv,luminescence,,,MIC50,,,>20 µM
COc1cc(/C=N/NC(=O)c2sc3ccc(Oc4ccccc4)cc3c2Cl)ccc1O,H37Rv,,,,inhibition,6.25 µg/mL,,7%
CCCCCNC(=O)CCc1cnc(C2C3CC4CC(C3)CC2C4)[nH]1,H37Rv,,,,MIC,,,>6.25 µg/mL
NC1=NN(c2ccccc2)C(=O)C1/C(=N/NC(=O)c1cc2ccccc2cc1O)C(=O)Nc1nc([N+](=O)[O-])cs1,H37Rv,resazurin,,,MIC bound,,,>6.25 µg/mL
CCCCCCCCCCCCCCC[C@H](O)C[C@H](O)CCC[C@H]1CC=CC(=O)O1,H37Rv,fluorescence,,,inhibition,128 µg/mL,VERO,95.8%
FC(F)(F)c1ccc(N2CCN(c3ccc(Nc4ncnc5ccccc45)cc3)CC2)cc1,H37Rv,luminescence,,,MIC50,,,>10 µM
CCOC(=O)N1N=C(c2ccccc2)OC2(N3CCOCC3)CCC(C(C)(C)C)CC12,H37Rv,BACTEC,,,MIC bound,,,>12.5 µg/mL
CCCCCCCCN1C(=O)CS(=O)C12CCCCC2,H37Ra,resazurin,,,inhibition,25 µg/mL,,5%
CN(C)CNC(=S)S,H37Rv,BACTEC,,,MIC,,,3.13 µg/mL
CC(C)/C=N/NC(=O)c1cnc(C2C3CC4CC(C3)CC2C4)[nH]1,H37Rv,,,,MIC,,,>6.25 µg/mL
CCCCCCCCCCCCCCC[C@H](O)CCC[C@H]1CC=CC(=O)O1,H37Rv,fluorescence,,,inhibition,128 µg/mL,VERO,97.4%
COc1ccc(C2C(Cl)C(=O)C2NC(=O)c2sc3ccc(Oc4ccccc4)cc3c2Cl)c(OC)c1OC,H37Rv,,,,inhibition,6.25 µg/mL,,10%
Fc1ccc2c(Nc3ccccc3Oc3ccc(C(F)(F)F)cc3)ncnc2c1,H37Rv,luminescence,,,MIC50,,,>50 µM
COc1ccc(CCN2C(=O)CN(CCN3CC(=O)N(CCc4ccc(OC)c(OC)c4)C(=O)C3)CC2=O)cc1OC,H37Rv,BACTEC,,,MIC bound,,,>6.25 µg/mL
CN(C)c1ccc(C2C(Cl)C(=O)C2NC(=O)c2sc3ccc(Oc4ccccc4)cc3c2Cl)cc1,H37Rv,,,,inhibition,6.25 µg/mL,,0%
CCCCCCCCCCCCCCC[C@H](O)CCC[C@H](O)C[C@H]1CC=CC(=O)O1,H37Rv,fluorescence,,,inhibition,128 µg/mL,VERO,97.3%
Nc1c(-c2c(Cl)cccc2Cl)[n+]([O-])c2ccccc2[n+]1[O-],INH-r,,,,MIC,,,6.3 µg/mL
COc1ccc(/C=N/NC(=O)c2sc3ccc(Oc4ccccc4)cc3c2Cl)cc1OC,H37Rv,,,,inhibition,6.25 µg/mL,,0%
CO[C@H]1/C=C/O[C@@]2(C)Oc3c(C)c(O)c4c(O)c(c(/C=N/N5CCN(C)CC5)c(O)c4c3C2=O)NC(=O)/C(C)=C\C=C\[C@H](C)[C@H](O)[C@@H](C)[C@@H](O)[C@@H](C)[C@H](OC(C)=O)[C@@H]1C,M21,resazurin,,MDR,MIC,,,>2 µg/mL
Cc1ccc2c(c1)N(CCC(C)C)C(=O)c1ccnnc1O2,H37Rv,BACTEC,,,inhibition,12.5 µg/mL,,5%
CN(C)c1ccc2nc3ccc(=[N+](C)C)c([N+](=O)[O-])c-3sc2c1,H37Rv,BACTEC,,,MIC bound,,,>12.5 µg/mL
CCCCCN1C(=O)c2ccnnc2Oc2ccc(C)cc21,H37Rv,BACTEC,,,EC50,,,>12.5 µg/mL
FC(F)(F)c1ccc(Oc2ccc(Nc3ccnc4ccnn34)cc2)cc1,H37Rv,luminescence,,,MIC50,,,>10 µM
COc1ccc2c(C)cc(N/N=C(\C)c3cn(C)n(-c4ccccc4)c3=O)nc2c1,H37Rv,BACTEC,,,inhibition,12.5 µg/mL,,20%
N#Cc1ccc(-c2ccc(OCc3nn[nH]n3)cc2CN2CCN(c3ccccn3)CC2)cc1,H37Rv (ATCC 27294),broth dilution,,,MIC,,,64 µg/mL
C=C(C)C1CC=C(C)/C(=N/NC(=O)c2cccnc2)C1,H37Rv,visual reading / absorbance,,KatG *741R,MIC,,,50 µM
CC(=O)O.CC(O)C(N)C(=O)NC(Cc1ccc(O)cc1)C(=O)NC(CO)C(=O)NC(CCCCN)C(=O)O,H37Rv,BACTEC,,,MIC,,,≥12.8 µg/mL
CCCCCCCN1C(=O)c2cc(Cl)nnc2Oc2ccc(Cl)cc21,H37Rv,BACTEC,,,EC50,,,>12.5 µg/mL
c1ccc(CCNc2ncnc3ccsc23)cc1,H37Rv,luminescence,,,MIC50,,,>50 µM
CCCCCCCCCCCCCCC[C@H]1CC=CC(=O)N1,H37Rv,,,,MIC,,,>128 µg/mL
O=C(Nc1ccc(NC(=O)c2ccccc2)c2c1C(=O)c1ccccc1C2=O)c1ccccc1,H37Rv,BACTEC,,,inhibition,12.5 µg/mL,,-8%
CC(C)=CCC/C(C)=C/CNc1ncnc2ccsc12,H37Rv,luminescence,,,MIC50,,,>40 µM
Cc1cc2nc3c(=O)[nH]c(=O)nc-3n(CC(O)C(O)C(O)COB(O)O)c2cc1C,H37Rv,BACTEC,,,inhibition,6.25 µg/mL,,0%
O=C(O)COc1ccc(-c2ccc(Cl)cc2)c(CN2CCN(c3ccncc3)CC2)c1,H37Rv (ATCC 27294),broth dilution,,,MIC,,,32 µg/mL
N#Cc1ccc(Oc2ccc(Nc3ncnc4ccccc34)cc2)nc1,H37Rv,luminescence,,,MIC50,,,25 µM